Source: US7951827B2, “Synthesis and antiprotozoal activity of dicationic 3,5-diphenylisoxazoles” (The University of North Carolina at Chapel Hill, priority 2005, dated 2011)

Tested on: Plasmodium falciparum
Test: In vitro antiprotozoal activity against Plasmodium falciparum
Assay type: cell-based
Conditions: P. falciparum vs VERO cytotoxicity, relative to furamidine
Protocol: In vitro antiprotozoal activities, see Ismail, M. A., et al., J. Med. Chem. 46, 4761-4769 (2003), and cytotoxicity were measured following established protocols, see Balz, T., et al., EMBO J., 4, 1273-1277 (1985); Räz. […] Other positive controls employed were melarsoprol (against T. brucei), chloroquine, and artemisinin (against P. falciparum), and podophyllotoxin (against VERO cells).

Row | Compound | therapeutic indices, times greater than that of furamidine
1 | COc1cc(C(=N)N)ccc1-c1cc(-c2cccc(C(=N)N)c2)no1.Cl.Cl [Compound 18, 5-(4-Amidino-2-methoxyphenyl)-3-(3-amidinophenyl)isoxazole dihydrochloride] | 120 times
2 | COc1ccc(C(=N)N)cc1-c1cc(-c2ccc(C(=N)N)cc2)on1.Cl.Cl [Compound 21, 3-(5-Amidino-2-methoxyphenyl)-5-(4-amidinophenyl)isoxazole dihydrochloride] | 200 times

Some results come without the dose or concentration used.
